Laboratory results: PubChem BioAssay AID504884 (Broad Institute, 2011)
This is a selection; strong and weak results do not stand in their true shares. Active and inactive are the calls of the source. Cut-off read from the data, not from the text of the source: active = activity above about 50% (passing the limit was not always enough); inconclusive = no clear call, values can overlap the other calls.

system: DNA topoisomerase I (Yersinia pestis CO92); assay: Yersinia pestis topoisomerase I inhibitors, primary screen, biochemical, cleavage product accumulation, plate reader, single point (AID 504884); settings: Y. pestis Topo-I cleavage product accumulation, at 10 µM, stronger effect = higher value

SMILES | activity
O=P(Nc1nccs1)(c1ccccc1)c1ccccc1 | inactive: 3.32%
CC(C)C(=O)NC(Sc1ccccc1)C(Cl)(Cl)Cl (stereo unspecified) | inactive: -6.79%
c1nnnn1CCn1cnnn1 | inactive: 6.01%
O=[As](O)(c1ccccc1)c1ccc(O)cc1 | inactive: 4.2%
CC(=O)NC(SC(=S)N(C)C)C(Cl)(Cl)Cl (stereo unspecified) | inactive: 2.59%
O=[N+]([O-])c1ncn(CCn2cnc([N+](=O)[O-])n2)n1 | inactive: 10.1%
O=[N+]([O-])c1ccc(O)c(/C=N/Nc2ccc([N+](=O)[O-])cc2[N+](=O)[O-])c1 | inactive: -20%
O=C(OC1CN2CCC1CC2)c1cccc(Cl)c1 (stereo unspecified) | inactive: 1.75%
C(Cc1nn[nH]n1)Cc1nn[nH]n1 | inactive: 6.32%
Nc1ccc([As](=O)(O)c2ccc([N+](=O)[O-])cc2)cc1 | inactive: -13.3%
CN(C)C1(CNC(=O)c2ccc(Cl)c(S(N)(=O)=O)c2)CCCCC1 | inactive: 2.95%
O=P(Nc1ccccn1)(c1ccc(Br)cc1)c1ccc(Br)cc1 | inactive: -8.94%
COc1ccc(N)c([N+](=O)[O-])c1[N+](=O)[O-] | inactive: -8.64%
O=P(Nc1nc2ccccc2s1)(c1ccccc1)c1ccccc1 | inactive: 6.76%
C[C@H]1OP(=O)(Oc2ccccc2)[C@H](O)[C@H](O)[C@H]1N=[N+]=[N-] (stereo partly specified) | inactive: 2.91%
O=C(OC1CN2CCC1CC2)c1ccccc1 (stereo unspecified) | inactive: 4.59%
CCC(=O)N1C2C3N(C(=O)CC)C1C1N(C(=O)CC)C(C(N1C(=O)CC)N3C(=O)CC)N2C(=O)CC | inactive: -0.225%
COC(=O)c1cc2c(s1)N=C(c1ccccc1)N(C)P2(=O)N1CCOCC1 (stereo unspecified) | inactive: -1.82%
CC(=O)NC(SC(=S)N(CC(C)C)CC(C)C)C(Cl)(Cl)Cl (stereo unspecified) | inactive: 21.4%
Cc1ccc(OP(=O)(Nc2ccccn2)Oc2ccc(C)cc2)cc1 | inactive: 23.3%
CC(NC(=O)COC(=O)C(O)(c1ccccc1)c1ccccc1)c1ccccc1 (stereo unspecified) | inactive: 14.8%
Cc1ccccc1OP(=O)(Nc1ccccn1)Oc1ccccc1C | inactive: 27.4%
O=c1c2cc([N+](=O)[O-])ccc2[nH]c2c([N+](=O)[O-])cc([N+](=O)[O-])cc12 | inactive: 2.32%
CN(C)C(=O)Oc1noc2ccccc12 | inactive: -4.76%
c1ccc(-c2nn[nH]n2)c(-c2nn[nH]n2)c1 | inactive: -4.03%
Cc1ccc(NP(=O)(Oc2cccc(C)c2)Oc2cccc(C)c2)nc1 | inactive: 3.33%

SMILES | activity
O=C(NC1CCS(=O)(=O)C1)NP(=S)(Oc1ccccc1)Oc1ccccc1 (stereo unspecified) | inactive: -0.727%
CCNC(=S)/N=C(\N)N[N+](=O)[O-] | inactive: 1.85%
O=P1(N(CCCl)CCCl)OCCC2CCCCN21 (stereo unspecified) | inactive: -9.9%
Cc1ccccc1CN(C)C(=O)COC(=O)C(O)(c1ccccc1)c1ccccc1 | inactive: 18.9%
C[C@H]1OP(=O)(Oc2ccccc2)C[C@@H]2O[C@@H]21 (stereo partly specified) | inactive: -1.11%
C[C@@H]1C=CCP(=O)(Oc2ccccc2)O1 (stereo partly specified) | inactive: 7.75%
CC(=O)c1ccc(N2CC2c2ccncc2)cc1 (stereo unspecified) | inactive: 3.6%
N#C/C(=C\c1ccc(N(CCBr)CCBr)cc1)C(N)=O | inactive: 15.1%
COC(=O)C1(C)COP(=O)(NCc2ccccc2)OC1 (stereo unspecified) | inactive: -1.26%
CC(=O)Nc1ccc([As](=O)(O)O)c(O)c1 | inactive: 4.82%
CC(=O)Nc1ccc(Oc2c([N+](=O)[O-])cc([N+](=O)[O-])cc2[N+](=O)[O-])cc1 | inactive: 0.274%
O=P1(Nc2nc3ccc(Cl)cc3s2)COc2ccccc2O1 (stereo unspecified) | inactive: -1.63%
CCOc1ccc(C2=NCC(CBr)S2)cc1 (stereo unspecified) | inactive: 3.65%
CC(C)(C)C(=O)NC(Sc1ccccc1)C(Cl)(Cl)Cl (stereo unspecified) | inactive: 1.32%
CCc1cc(O)c([N+](=O)[O-])c(C)c1[N+](=O)[O-] | inactive: 2.34%
Oc1ccccc1CNc1ccccn1 | inactive: 6.89%
O=C(NC(Sc1ccncn1)C(Cl)(Cl)Cl)c1ccccc1 (stereo unspecified) | inactive: -8.68%
Nc1cc(N)c2nonc2c1[N+](=O)[O-] | inactive: -6.31%
CC(C)CC(=O)NC(Sc1ccc(Cl)cc1)C(Cl)(Cl)Cl (stereo unspecified) | inactive: 6.6%
CN(C(=O)Cc1ccc(Cl)c(Cl)c1)[C@H]1CCCC[C@H]1N1CCCC1 | inactive: 9.11%
Cc1ccc(N/C(=N/P(=O)(N2CCOCC2)N2CCOCC2)N2CCOCC2)cc1 | inactive: -13.3%
NC(=O)c1cc([N+](=O)[O-])cc([N+](=O)[O-])c1N | inactive: 0.916%
CN1CCCC(OC(=O)C(c2ccccc2)c2ccccc2)C1 (stereo unspecified) | inactive: -5.19%
Clc1ccc(Cl)c(NC2=NCC(CBr)S2)c1 (stereo unspecified) | inactive: 3.1%
COc1ccccc1OP(=O)(Nc1ccc(C)cn1)Oc1ccccc1OC | inactive: 5.8%
Cc1ccc(OP(=O)(Nc2nccs2)Oc2ccc(C)cc2)cc1 | inactive: 22.8%

SMILES | activity
Nc1cccc2ccc([As](=O)(O)O)cc12 | inactive: 5.01%
CCN(N=Nc1nonc1N)c1nonc1N | inactive: 4.69%
O=P(Nc1nc2ccc(Cl)cc2s1)(c1ccccc1)c1ccccc1 | inactive: -5.21%
CN(C)P(=O)(N(C)C)n1c(Nc2ccccc2)nnc1-c1ccccc1 | inactive: 17.3%
CC(=O)Nc1ccc([As](=O)(O)O)cc1 | inactive: -8.16%
O=C(O)c1ccccc1[As](=O)(O)O | inactive: -1.79%
CCCC1OP(N)(=O)OCC1CC (stereo unspecified) | inactive: 2.5%
Cc1cc(SC(NC(=O)c2ccc(F)cc2)C(Cl)(Cl)Cl)ncn1 (stereo unspecified) | inactive: -14%
CCOP(=O)(Nc1ccccc1)OCC | inactive: -3.21%
CN(C(=O)Cc1ccc(Cl)c(Cl)c1)[C@H]1CCCC[C@@H]1N1CCCC1 | inactive: -3.21%
Cc1ccc(NP(=O)(Oc2ccccc2F)Oc2ccccc2F)nc1 | inactive: -3%
O=[N+]([O-])c1ncn(CCn2ncnc2[N+](=O)[O-])n1 | inactive: 2.73%
CC(C)(C)C(=O)NC(Sc1ccncn1)C(Cl)(Cl)Cl (stereo unspecified) | inactive: -0.748%
O=C(O)CNc1ccc([As](=O)(O)O)cc1 | inactive: -5.41%
COC(=O)C1(C)COP(=O)(Nc2ccccc2)OC1 (stereo unspecified) | inactive: -4.17%
O=[N+]([O-])c1cccc(NC2=NCC(CBr)S2)c1 (stereo unspecified) | inactive: -0.414%
O=P1(N(CCCl)CCCl)OCCCS1 (stereo unspecified) | inactive: 7.07%
O=C(Nc1cc([As](=O)(O)O)ccc1O)c1ccccc1 | inactive: -6.91%
CCN(/C(=N/P(=O)(N1CCOCC1)N1CCOCC1)N1CCOCC1)c1ccc(OC)cc1 | inactive: -8.85%
Nc1ccc([As](=O)(O)c2ccc(N)cc2)cc1 | inactive: 2.04%
C[N+]1=C2C=CC=CC=C2SC12C([N+](=O)[O-])=CC([N+](=O)[O-])=C[C-]2[N+](=O)[O-] (stereo unspecified) | inactive: -25.1%
CC1CCN(C(=O)Oc2c(Cl)cc(Cl)c3cccnc23)CC1 | inactive: 38.1%
c1cc(-c2nn[nH]n2)ccc1-c1nn[nH]n1 | inactive: 6.61%
CC(C)c1nc(Nc2ccccc2)n(P(=O)(N(C)C)N(C)C)n1 | inactive: 2.59%
CC(C)=N/N=C(\N)N[N+](=O)[O-] | inactive: -6.1%
CN(C)C(=O)OCCc1n(C)cc[n+]1C | inactive: -3.9%

SMILES | activity
COc1ccc(C2=NCC(CBr)S2)cc1 (stereo unspecified) | inactive: -15%
Cc1ccc(NP(=O)(Oc2ccccc2)Oc2ccccc2)nc1 | inactive: 4%
O=[N+]([O-])c1cc([N+](=O)[O-])c(CCNc2ccccc2)c([N+](=O)[O-])c1 | inactive: 2.1%
CCc1nc2c(n1)c1c(non1O)c1c2no[n+]1[O-] | inactive: 5.12%
CC(=O)N1C2C3N(C(C)=O)C1C1N(C(C)=O)C(C(N1C(C)=O)N3C(C)=O)N2C(C)=O | inactive: -8.75%
O=[N+]([O-])c1cccc2n[nH]nc12 | inactive: -4.17%
O=C(OC1CN2CCC1CC2)c1cccc([N+](=O)[O-])c1 (stereo unspecified) | inactive: -3.2%
CSc1ccc(Nc2c([N+](=O)[O-])cc([N+](=O)[O-])cc2[N+](=O)[O-])cc1 | inactive: -14.3%
CCOC(=O)c1ccc(NC(=O)C(C)(CCl)SC)cc1 (stereo unspecified) | inactive: 1.04%
CCC(C)N(CC(C)C)C(=S)SC(NC(C)=O)C(Cl)(Cl)Cl (stereo unspecified) | inactive: 14%
COP1(=S)c2c(C)nn(CCC#N)c2N=C(c2ccc(F)cc2)N1C (stereo unspecified) | inactive: 0.057%
O=C(O)C(=O)c1ccc(N(CCCl)CCCl)cc1 | inactive: 1.98%
O=C(COc1ccccc1)OC1CN2CCC1CC2 (stereo unspecified) | inactive: -4.48%
O=C(Nc1ccncc1[N+](=O)[O-])c1ccc([N+](=O)[O-])cc1[N+](=O)[O-] | inactive: 4.4%
CCOC(=O)Nc1cccc([As](=O)(O)O)c1 | inactive: -2.95%
Cc1cc(SC(NC=O)C(Cl)(Cl)Cl)ncn1 (stereo unspecified) | inactive: -1.29%
O=P(Nc1ccccn1)(c1cccc2ccccc12)c1cccc2ccccc12 | inactive: 23.8%
O=[N+]([O-])c1ccc(Nc2ccc(Oc3ccc([N+](=O)[O-])cc3[N+](=O)[O-])cc2)c([N+](=O)[O-])c1 | inactive: -1.76%
O=C(O)C(O)c1ccc(N(CCCl)CCCl)cc1 (stereo unspecified) | inactive: 1.84%
CCOC(=O)Nc1ccc([As](=O)(O)O)c(O)c1 | inactive: 4.47%
CC1CCNP(=O)(N(CCCl)CCCl)O1 (stereo unspecified) | inactive: -7.46%
COP(=O)(OC)N1CC1c1ccccc1 (stereo unspecified) | inactive: 6.86%
CCCCOc1ccc(C(=O)NCC2(N3CCCCC3)CCCCC2)cc1OC | inactive: 5.95%
